Source: PMC3793909
For at least one entry, the source does not settle the construct or the ends of the probe. Protein sequences can lack the tags named with them.

How the values were obtained:
[1] = target: T1, ComA (Bacillus nematocida B16) (UniProt P14204); test: EMSA; details: 30 ng ComA; recombinant protein; label: biotin 5' end
T1 sequence (looked up, limits assumed): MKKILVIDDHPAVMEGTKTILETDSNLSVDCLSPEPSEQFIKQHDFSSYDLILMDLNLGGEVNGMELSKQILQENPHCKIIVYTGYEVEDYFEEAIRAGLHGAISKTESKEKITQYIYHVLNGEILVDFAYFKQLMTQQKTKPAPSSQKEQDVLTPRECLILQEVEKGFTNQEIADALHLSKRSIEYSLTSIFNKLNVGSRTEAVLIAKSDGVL

[2] = target: T1, ComA (Bacillus nematocida B16); test: competition with a labelled probe; details: 50- and 100-fold excess over labeled probe, retarded band faded and disappeared; recombinant protein

| Sequence | binding result [1] | binding result [2] |
| --- | --- | --- |
| CCGATGCTGGCCGCCGGAAGCCTTT (double strand) [bae16 promoter probe -185 to -160 (Q1a/RQ1a)] | binds |  |
| CCGATGCTGGCCGCCGGAAGCCTTT (double strand) [unlabeled bae16 promoter competitor (LQ1/LQ2)] |  | binds |
